# Source: patent US12138299B2, “Aldehyde dehydrogenase producing bacteria and methods of using same” (Children's Hospital Medical Center, priority 2021, dated 2024)
# Test system: C. rodentium
# Assay: C. rodentium in vitro culture, bacterial density (OD600)
# Assay type: cell-based, Citrobacter rodentium
# Conditions: 10-1000 μM SNP (NO-donor)
substance,measurement,value
sodium nitroprusside,C. rodentium survival in vitro,impaired

# Some compounds may have been tested in ways that are not shown here.
